Compound potency records, mixed from different reports. Data source: NIAID ChemDB in PubChem.

All rows: toxicity to cultured cells; endpoint: CC50

CCn: concentration that lowers growth or viability of the cells by n%. Lines come from different laboratories, so protocols vary. Blank or dashed fields: not listed here.

compound | cell line | read by | result
O=C(Nc1ccccc1[N+](=O)[O-])NC1N=C(c2ccccc2)c2ccccc2NC1=O | VERO | - | 1.5 µM
Nc1ncnc2c1ncn2[C@@H]1O[C@H](OCP(=O)(O)O)C=C1F | CHO (hOAT1) | - | 435 µM
C[C@H]1[C@@H](OC(=O)CCC(=O)O)O[C@@H]2O[C@@]3(C)CC[C@H]4[C@H](C)CC[C@@H]1[C@@]24OO3 | HepG2 2.2.15 | - | 20 µM
CC(C)[C@H](NC(=O)OCc1cccnc1)C(=O)N[C@@H](Cc1ccccc1)[C@@H](O)[C@H](O)[C@H](Cc1ccccc1)NC(=O)[C@@H](NC(=O)OCc1cccnc1)C(C)C | H9 | trypan blue | >180 µM
CC(=O)c1c(O)c(C)c(O)c2c1OC1=CC(=O)/C(=C(/C)NCCC3=CNC4C=CC=CC34)C(=O)[C@@]12C | L6 | resazurin | 157.1 µM
C#C[C@]1(CO)O[C@@H](n2cc(F)c3c(N)nc(Cl)nc32)C[C@@H]1O | MT4-GFP | ATP / luminescence | >8.4 µM
CCOC(=O)C(N)(c1c[nH]c2ccc(C)cc12)C(F)(F)F | TZM-bl | MTT | >133 µM
CN(C)C(=O)OC1(C)c2ccccc2-c2c1c(-n1ccnc1)nc1ccc(Br)cc21 | U-937 | MTT | >10 µg/mL
O=c1c2cc(O)c(O)cc2oc2cc(O)cc(O)c12 | 1A2 | XTT / absorbance | 59.72 µM
O=C(O)P(=O)(O)O | HSB-2 | - | 274 µg/mL
COC(=O)C(N)(c1c[nH]c2c(C)cccc12)C(F)(F)F | TZM-bl | MTT | 34.9 µM
CC(C)OC(=O)[C@H](C)NP(=O)(OC[C@H]1O[C@@H](n2ccc(=O)[nH]c2=O)[C@](C)(F)[C@@H]1O)Oc1ccccc1 | Replicon cells | - | >50 µM
Nc1ncnc2c1ncn2[C@@H]1O[C@H](CO)[C@@H](O)[C@@H]1O | CBMC | MTT | 78 µM
O=c1[nH]c(=O)n([C@@H]2O[C@H](CO)[C@@H](O)[C@@H]2F)cc1C12B3B4B5B6B(B3B1B42)B1B5C61 | CFU-GM | - | 19.1 µM
COc1ccc(C(=O)NC2N=C(c3ccccc3F)c3cc(Cl)ccc3NC2=O)cc1 | HEP-2 | - | 6 µM
O=c1[nH]c(=O)n([C@H]2C[C@H](O)[C@@H](CO)O2)cc1I | CBMC | MTT | 178 µM
CC(C)[C@H](NC(=O)OCc1ccccc1)C(=O)N[C@@H](Cc1ccccc1)[C@H](O)[C@H](Cc1ccccc1)NC(=O)[C@@H](NC(=O)N1CCN(C)CC1)C(C)C | H9 | trypan blue | 54 µM
COc1cc(O)cc(OC)c1C(=O)c1ccc(O)c(O)c1 | 1A2 | XTT / absorbance | 123 µM
OC[C@H]1O[C@@H](n2cnc3c(NC4CCCCCC4)ncnc32)[C@H](O)[C@@H]1O | Sheep chondrocytes G81092 | - | 126 µM
COc1ccc(-c2coc3cc(O[C@@H]4O[C@H](CO)[C@@H](O)[C@H](O)[C@H]4O)ccc3c2=O)cc1O | HEP-2 | - | 177 µg/mL
Nc1ncnc2c1ncn2[C@H]1C[C@H](O)[C@@H](CO)O1 | Sheep chondrocytes G81092 | MTT | >400 µM
CC(=O)c1c(O)c(C)c(O)c2c1OC1=CC(=O)/C(=C(/C)NCCCCOC3O[C@@H]4OCC5(C)CC6[C@H](C)CC[C@@H]([C@H]3C)[C@]64OO5)C(=O)[C@@]12C | L6 | resazurin | 0.015 µM
O=c1cc(-c2ccc(O)c(O)c2)oc2cc(O)cc(O)c12 | BCC-1/KMC | - | 23.1 µg/mL
CC(C)[C@H](NC(=O)OCc1ccncc1)C(=O)N[C@@H](Cc1ccccc1)[C@@H](O)[C@H](O)[C@H](Cc1ccccc1)NC(=O)[C@@H](NC(=O)OCc1ccncc1)C(C)C | H9 | trypan blue | >100 µM
OC[C@H]1O[C@@H](n2cnc3c(NC4CC4)ncnc32)C[C@@H]1O | Sheep chondrocytes G81092 | - | 312 µM
CC(=O)c1c(O)c(C)c(O)c2c1OC1=CC(=O)/C(=C(/C)NNC(=O)c3ccccc3)C(=O)[C@@]12C | L6 | resazurin | 21.06 µM
O=c1c(-c2ccc(O)cc2)coc2cc(O)ccc12 | HepG2 2.2.15 | - | >100 µM
COC(=O)C(N)(c1c[nH]c2ccc(C)cc12)C(F)(F)F | TZM-bl | MTT | >140 µM
CCC(=O)O/N=C1\c2ccccc2-c2c1c(N1CCN(c3ccccn3)CC1)nc1ccc(Br)cc21 | U-937 | MTT | >20 µg/mL
C[C@H]1c2ccoc2C[C@H]2[C@H]1[C@@H](O)[C@@H](OC(=O)c1ccccc1)[C@@]1(O)C(C)(C)CCC[C@]21C | NCI-H187 | - | 2.9 µg/mL
C[C@@H]1CC[C@H]2[C@@H](C)C(=O)O[C@@H]3OC4(C)CC[C@@H]1[C@]32OO4 | HepG2 2.2.15 | - | 160 µM
O=C(O)/C=C/c1ccc(O)cc1 | BCC-1/KMC | - | 489 µg/mL
CC(C)[C@H](NC(=O)OCCN1CCOCC1)C(=O)N[C@@H](Cc1ccccc1)[C@@H](O)[C@H](Cc1ccccc1)NC(=O)[C@@H](NC(=O)OCc1ccccc1)C(C)C | H9 | trypan blue | >100 µM
CCOC(=O)C(N)(C1=CNC2C=C(Br)C=CC12)C(F)(F)F | TZM-bl | MTT | 49.3 µM
CC(C)(O)[C@H]1Cc2c(O)cc(-c3ccccc3)cc2O1 | 1A2 | XTT / absorbance | 152 µM
OC[C@H]1O[C@@H](n2cnc3c(NC4CCCCCC4)cc(Cl)nc32)C[C@@H]1O | MDBK | - | 120 µM
O=C(O)CP(=O)(O)O | CBMC | MTT | 300 µM
OC[C@@H]1C[C@@H](O)[C@H](n2cnc3c(NC4CCCCC4)nc(Cl)cc32)O1 | Sheep chondrocytes G81092 | - | 270 µM
C[C@H](Cn1cnc2c(N)ncnc21)OCP(=O)(O)O | RPTECs (clinical isolate 1) | ATP | >2000 µM
CC(=O)[C@]1(O)CC[C@@]2(O)[C@]1(C)[C@H](OC(=O)/C=C(\C)C(C)C)CC1[C@@]3(C)CC[C@H](O)CC3=CC[C@]12O | 2.2.15 | MTT | 225 µM
Nc1ncnc2c1ncn2C[C@@H](CO)OCP(=O)(O)O | HSB-2 | - | 14 µg/mL
CC1(C)CC[C@]2(C(=O)O)CC[C@]3(C)C(=CC[C@@H]4[C@@]5(C)CC[C@H](O)C(C)(C)[C@@H]5CC[C@]43C)[C@@H]2C1 | BCC-1/KMC | - | 37.8 µg/mL
CC(C)CCn1c(=O)/c(=C2\Nc3ccc(NS(C)(=O)=O)cc3S(=O)(=O)N2)c(=O)c2cc(F)cn21 | HCV Huh-7/C24 | - | >1 µM
Nc1ccn(C[C@@H](CO)OCP(=O)(O)O)c(=O)n1 | RPTECs (clinical isolate 1) | ATP | 291 µM
OC[C@H]1O[C@@H](n2cnc3c(NC4CCCCCC4)nc(Cl)nc32)[C@H](O)[C@@H]1O | MDBK | - | 131 µM
O=Nc1c(O)[nH]c2ccccc12 | RAW 264.7 | MTT / absorbance | 42.62 µM
Cc1ccc(NC(=O)NC(C)CCc2ccccc2)cc1Cl | CCL-81 | MTT | >400 µg/mL
OC[C@@H]1CC[C@H](n2cnc3c(NC4CC4)ncnc32)O1 | Sheep chondrocytes G81092 | MTT | 280 µM
CC1(O)c2ccccc2-c2c1c(-n1ccnc1)nc1ccc(Br)cc21 | U-937 | MTT | >10 µg/mL
Cc1cn([C@H]2C=C[C@@H](CO)O2)c(=O)[nH]c1=O | C3H | - | >200 µM
CNc1ccc2oc(C[C@@H]3OC4(CC[C@@H]3C)O[C@H](C(C)C(=O)c3ccc[nH]3)[C@H](C)C[C@H]4C)nc2c1C(=O)O | Macrophage | luminescence | 0.32 µg/mL
Nc1ncnc2c1ncn2C[C@@H](CO)OCP(=O)(O)O | CBMC | MTT | 19 µM
COc1cc(/C=C/C(=O)O)ccc1O | BCC-1/KMC | - | 92.6 µg/mL
CCCCCC(=O)O/N=C1\c2ccccc2-c2c1c(N1CCN(c3ccccn3)CC1)nc1ccc(Br)cc21 | U-937 | MTT | >20 µg/mL
Nc1nc2c(ncn2COC(CO)CO)c(=O)[nH]1 | MDBK | - | <50 µM
O=C1Nc2ccccc2C(c2ccccc2)=NC1NS(=O)(=O)c1cccc(Br)c1 | VERO | - | 10 µM
Nc1ncnc2c1ccn2[C@@H]1O[C@H](CO)[C@@H](O)[C@H]1O | PRK | - | 0.4 µg/mL
C=CC(C)(C)c1c2c(c(O)c3c(=O)c4ccc(OC)c(O)c4oc13)C=CC(C)(C)O2 | 1A2 | XTT / absorbance | >306 µM
CN(C(=O)Nc1ccccc1F)C1N=C(c2ccccc2)c2ccccc2NC1=O | HEP-2 | - | 9.5 µM
CCc1nc2ccc(Cl)cn2c1C(=O)NCc1ccc(N2CCC(c3ccc(OC(F)(F)F)cc3)CC2)cc1 | THP-1 human monocytic cells | - | >25 µM
O=C(c1cc(O)cc(O)c1)c1c(O)cc(O)cc1O | 1A2 | XTT / absorbance | 110 µM
COc1ccc2c(c1)S(=O)(=O)N/C(=c1\c(=O)c3cccn3n(CCC(C)C)c1=O)N2 | HCV Huh-7/C24 | - | >100 µM
CC(=O)c1c(O)c(C)c(O)c2c1OC1=CC(=O)/C(=C(/C)N[C@@H](CC(N)=O)C(=O)O)C(=O)[C@@]12C | L6 | resazurin | 34.62 µM